A mixed list of measured activities; the numbers were collected in NIAID ChemDB.

A number after MIC or MFC names an inhibition level or a share of isolates. ECn: concentration that inhibits the pathogen or its effect by n%. ICn is the concentration giving n% inhibition. MIC bound comes from a single tested concentration. Conditions beyond the fields shown may differ between rows. Inhibition is in % at the dose shown (toxicity tests: loss of growth or viability). Blank or dashed fields: not listed here.

structure,target,cell line,agent,endpoint,test,dose,strain,method,value
CC(=O)c1ccc(-c2cncc(N3CCC(c4ccccc4)CC3)n2)cc1,UL97 kinase,,Cytomegalovirus,IC50,target,,,,<10 µM
O=C1CCCCCCCCCCCCCCCO1,,,Mycobacterium tuberculosis,MIC,culture,,PZA-R,,>12.8 µg/mL
CC(=O)N1CCC(C2CCN(C(C)=O)CC2)CC1,,,Mycobacterium tuberculosis,MIC,culture,,H37Rv,,>100 µg/mL
CCO/N=C/c1ccc(OCCC2CCN(c3ccc(C)nn3)CC2)cc1,,KB,Rhinovirus,EC50,culture,,204-CV14 (ICAM-1 receptor group 10),neutral red,0.082 µM
O=CNc1cccc(Cl)c1,,,Mycobacterium tuberculosis,MIC,culture,,H37Rv,,50 µg/mL
C=CCc1ccc(O)c(OC)c1,,,Candida albicans,MIC90,culture,,3048,turbidity,500 µg/mL
CSc1ccc(-c2cncc(N3CCN(c4ccc(C)cc4)CC3)n2)cc1,UL97 kinase,,Cytomegalovirus,inhibition,target,1 µM,,,<50%
O=C(Nc1nnc(NCCc2cccs2)s1)c1ccc(I)cc1,Polymerase,,Human cytomegalovirus,IC50,target,,,,>25 µM
CC(C)=C(Cl)c1c(C)cc(C)c(CC(N)=O)c1C,,,Mycobacterium tuberculosis,MIC,culture,,H37Rv,,>100 µg/mL
c1coc(CNCCNCc2ccco2)c1,,,Mycobacterium tuberculosis,MIC,culture,,,,25 µM
Cc1ccc(C(=O)Nc2nnc(NCCCN3CCCC3=O)s2)cc1,Polymerase,,Human cytomegalovirus,IC50,target,,,,>25 µM
CC1(C)C2CCC(=O)OC1CC2,,,Mycobacterium tuberculosis,MIC bound,culture,,H37Rv,BACTEC,>12.5 µg/mL
COc1ccc(CNc2nnc(NC(=O)c3cccc([N+](=O)[O-])c3)s2)cc1OC,Polymerase,,Human cytomegalovirus,IC50,target,,,,>25 µM
Br.COc1ccc(OC)c2c1nc(CBr)n2C,,,Mycobacterium tuberculosis,MIC bound,culture,,H37Rv,BACTEC,>12.5 µg/mL
N#CCCOc1ccc(OCCC#N)cc1,,,Mycobacterium tuberculosis,MIC,culture,,H37Rv,,>100 µg/mL
CC(=O)OCC1OC(n2nc([N+](=O)[O-])nc2Br)C(OC(C)=O)C1OC(C)=O,,,Mycobacterium tuberculosis,MIC bound,culture,,H37Rv,BACTEC,>12.5 µg/mL
COc1cc(N)cc2c1NC(C)CC2.O=S(=O)(O)O,,,Mycobacterium tuberculosis,MIC,culture,,H37Rv,,>100 µg/mL
CCN(CC)CCOC(=O)c1c(C)oc2cc3c(C(=O)OCCN(CC)CC)c(C)oc3cc12,,,Mycobacterium tuberculosis,MIC bound,culture,,H37Rv,BACTEC,>12.5 µg/mL
CC(C)(O)c1cccc(O)c1,,,Mycobacterium tuberculosis,MIC,culture,,H37Rv,,>100 µg/mL
Nc1ccc2cc([N+](=O)[O-])cc(S(=O)(=O)[O-])c2c1,,Human amnion AV3 cells,Adenovirus,inhibition,culture,50 µg/mL,TYPE 3,cytopathic effect,0%
C/C1=C\C(C)C(O)C(O)C(=O)C2(C)CNC3=C(O2)C(=O)c2c(cc(C)c(O)c2C1=O)C3=O,,,Mycobacterium tuberculosis,MIC bound,culture,,H37Rv,BACTEC,>12.5 µg/mL
Nc1c(S(=O)(=O)O)ccc2c1C(=O)c1ccccc1C2=O,,,Mycobacterium tuberculosis,MIC,culture,,H37Rv,,>100 µg/mL
CC(=O)OC[C@]12[C@H](OC(C)=O)C(=O)[C@@H]3[C@@H](OC(C)=O)[C@@]14O[C@@]3(C)COC(=O)c1cccnc1[C@@H](C)[C@@H](C)C(=O)O[C@@H]([C@H](OC(C)=O)[C@@H]2OC(C)=O)[C@]4(C)O,,,Mycobacterium tuberculosis,MIC bound,culture,,H37Rv,BACTEC,>12.5 µg/mL
Cc1cccc(-c2cncc(N3CCN(c4cccc(C(F)(F)F)c4)CC3)n2)c1C,UL97 kinase,,Cytomegalovirus,inhibition,target,10 µM,,,>15%
CCCCC(CC)CN1CN(CC(CC)CCCC)CC(C)(NCCNCC(C)c2ccccc2)C1,,,Mycobacterium tuberculosis,MIC,culture,,,,6.25 µM
C#CC[C@@H](C(=O)N[C@H](/C=C/C(=O)OCC)C[C@@H]1CCNC1=O)n1cccc(NC(=O)c2cc(C)on2)c1=O,,H1-HELA,Rhinovirus,inhibition,culture,0.335 µM,Serotype 28,cytopathic effect / XTT,90%
O=C(C[n+]1ccccc1)NNC(=O)/C(=C/c1ccc2c(c1)OCO2)NC(=O)c1ccccc1.[Cl-],,,Mycobacterium tuberculosis,inhibition,culture,12.5 µg/mL,H37Rv,BACTEC,16%
C[C@H](Cc1ccc(O)c(O)c1)[C@@H](C)Cc1ccc(O)c(O)c1,,,Candida glabrata,MIC80,culture,,CCC 115-2000,broth dilution,250 µg/mL
CCCCCCCCC(=O)O,,,Mycobacterium tuberculosis,MIC,culture,,H37Rv,,25 µg/mL
CC1(C)[C@@H]2CC[C@@]1(C)[C@@H](NCCNC1Cc3ccccc3C1)C2,,,Mycobacterium tuberculosis,MIC,culture,,,,50 µM
NC(=O)Nc1ccc2[nH]c(=O)c3ccccc3c2c1,,,Mycobacterium tuberculosis,inhibition,culture,12.5 µg/mL,H37Rv,BACTEC,86%
O=[N+]([O-])c1cc([N+](=O)[O-])c2ccc(S(=O)(=O)O)cc2c1O,,Human embryonic lung cells,Adenovirus,inhibition,culture,50 µg/mL,TYPE 3,cytopathic effect,10%
CCC(C)(C)NCCNCC1(O)CCCCC1,,,Mycobacterium tuberculosis,MIC,culture,,,,50 µM
CC(C)N1CCCC(COC(=O)c2ccc([N+](=O)[O-])cc2)C1.Cl,,,Mycobacterium tuberculosis,MIC,culture,,H37Rv,,>100 µg/mL
O=C(Nc1nnc(NC2CCCCCC2)s1)c1cc2ccccc2s1,Polymerase,,Human cytomegalovirus,IC50,target,,,,>25 µM
NCS(=O)(=O)O,,Human embryonic lung cells,Rhinovirus,inhibition,culture,5 µg/mL,,cytopathic effect,5%
Cl.NC(=S)NNC(=O)c1cccnc1,,,Mycobacterium tuberculosis,MIC,culture,,H37Rv,BACTEC,≥12.5 µg/mL
O=C(Nc1nnc(NCCCNC2CCCCC2)s1)c1cccc([N+](=O)[O-])c1,Polymerase,,Human cytomegalovirus,IC50,target,,,,<25 µM
O=C(O)CCCCCCCCCCCCCCCCCc1ccc2ccccc2c1Cl,,,Mycobacterium tuberculosis,MIC,culture,,H37Rv,,50 µg/mL
COC(=O)C1=C(C(=O)OC)C2OC1C1OC21,,,Mycobacterium tuberculosis,inhibition,culture,12.5 µg/mL,H37Rv,BACTEC,21%
CC(CNCC(c1ccccc1)c1ccccc1)N[C@H]1C[C@H]2CC[C@]1(C)C2(C)C,,,Mycobacterium tuberculosis,MIC,culture,,,,50 µM
C1CN(CCN2CCOCC2)CCO1,,,Mycobacterium tuberculosis,MIC,culture,,H37Rv,,>100 µg/mL
O=C(O)c1cc(S(=O)(=O)[O-])ccc1O,,Human embryonic lung cells,Adenovirus,inhibition,culture,10 µg/mL,TYPE 3,cytopathic effect,5%
O=C([O-])c1ccc(NC(=O)c2ccc([N+](=O)[O-])cc2)cc1.[Na+],,,Mycobacterium tuberculosis,MIC,culture,,H37Rv,,>100 µg/mL
Cc1cc(=O)n2nc(CSc3n[nH]c(=S)s3)sc2n1,,,Mycobacterium tuberculosis,MIC bound,culture,,H37Rv,resazurin,>6.25 µg/mL
Clc1cccc(N2CCN(c3cncc(-c4csc5ccccc45)n3)CC2)c1,UL97 kinase,,Cytomegalovirus,IC50,target,,,,<100 µM
C[C@@H]1[C@@H](NCCNC[C@@H]2CC[C@H]3C[C@@H]2C3(C)C)C[C@H]2C[C@@H]1C2(C)C,,,Mycobacterium tuberculosis,MIC,culture,,,,6.25 µM
O=C(Nc1nnc(NCCc2c[nH]c3ccccc23)s1)c1cc2ccccc2s1,Polymerase,,Human cytomegalovirus,IC50,target,,,,>25 µM
O=S(=O)([O-])c1ccc2c(NS(=O)(=O)c3ccccc3)cc(S(=O)(=O)[O-])cc2c1,,Human amnion AV3 cells,Rhinovirus,inhibition,culture,10 µg/mL,,cytopathic effect,5%
CCC(CC)O[C@@H]1C=C(C(=O)O)C[C@H](N)[C@H]1NC(C)=O,,MDCK,Influenza A virus,EC50,culture,,Influenza A/Victoria/3/75 (H3N2),,0.06 µM
O=c1ccc2c(ccc3ncccc32)o1,,,Mycobacterium tuberculosis,inhibition,culture,12.5 µg/mL,H37Rv,BACTEC,10%
NC(=O)Cc1ccccn1,,,Mycobacterium tuberculosis,MIC,culture,,H37Rv,,>100 µg/mL
Fc1ccc(-c2cncc(N3CCN(c4ccncc4)CC3)n2)cc1,UL97 kinase,,Cytomegalovirus,IC50,target,,,,<10 µM
COc1cc(CCNCCNC[C@]2(C)CCC[C@]3(C)c4ccc(C(C)C)cc4CC[C@@H]23)ccc1O,,,Mycobacterium tuberculosis,MIC,culture,,,,12.5 µM
CC1=N/C(=C\c2ccccc2)C(=O)O1,,,Mycobacterium tuberculosis,MIC,culture,,H37Rv,,>100 µg/mL
CC(C)=CCOc1cc(NC(=S)c2ccsc2C)ccc1Cl,,,Mycobacterium tuberculosis,inhibition,culture,6.25 µg/mL,H37Rv,BACTEC,60%
O=C(O)c1cncc2ccccc12,,,Mycobacterium tuberculosis,MIC,culture,,H37Rv,,>100 µg/mL
O=C(Nc1nnc(NCc2ccc(Cl)c(Cl)c2)s1)c1cccc([N+](=O)[O-])c1,Polymerase,,Human cytomegalovirus,IC50,target,,,,>25 µM
COc1ccc2ncc(COC(=O)NC3CCCCC3)c(COC(=O)NC3CCCCC3)c2c1,,,Mycobacterium tuberculosis,MIC bound,culture,,H37Rv,BACTEC,≤12.5 µg/mL
CCCCCCCCCCCNCCNCCc1ccccc1OC,,,Mycobacterium tuberculosis,MIC,culture,,,,25 µM
CCCSC(SCCC)C1OC(c2ccccc2)OC2COC(c3ccccc3)OC21,,,Mycobacterium tuberculosis,MIC bound,culture,,H37Rv,BACTEC,>12.5 µg/mL
Oc1ccc(O)cc1,,,Mycobacterium tuberculosis,MIC,culture,,H37Rv,,>100 µg/mL
O=C(/C=C/c1ccccc1)OCC1=CC(O)[C@@H]2C=CO[C@@H](O[C@@H]3O[C@H](CO)[C@@H](O)[C@H](O)[C@H]3O)[C@H]12,,,Mycobacterium tuberculosis,MIC bound,culture,,H37Rv,BACTEC,>12.5 µg/mL
COc1ccc(N2CCN(c3cncc(-c4cccc(C)c4)n3)CC2)cc1OC,UL97 kinase,,Cytomegalovirus,IC50,target,,,,<10 µM
CCN(C(=O)CCC(=O)O)c1c(C)c(C)c(C)c(Br)c1C,,,Mycobacterium tuberculosis,MIC,culture,,H37Rv,,>100 µg/mL
[Cl-].[Cl-].c1ccc([P+](Cc2ccc(C[P+](c3ccccc3)(c3ccccc3)c3ccccc3)s2)(c2ccccc2)c2ccccc2)cc1,,,Mycobacterium tuberculosis,inhibition,culture,12.5 µg/mL,H37Rv,BACTEC,76%
Fc1ccc(N2CCCCC2)c(NC(=S)c2ccncc2)c1,PAR-1Balpha,,,inhibition,host protein,10 µM,,kinase activity,13%
Cl.Nc1ccc(O)c(CN2CCOCC2)c1,,,Mycobacterium tuberculosis,MIC,culture,,H37Rv,,>100 µg/mL
Cc1ccc(N2CCN(c3cncc(-c4ccc(F)c(Cl)c4)n3)CC2)c(C)c1,UL97 kinase,,Cytomegalovirus,IC50,target,,,,<100 µM
CNC(C)C(=O)c1ccccc1.Cl,,,Mycobacterium tuberculosis,MIC,culture,,H37Rv,,>100 µg/mL
COc1cccc(-c2cncc(N3CCN(c4ccccc4)CC3)n2)c1,UL97 kinase,,Cytomegalovirus,inhibition,target,1 µM,,,<50%
O=S(=O)([O-])c1cc(NS(=O)(=O)c2ccccc2)c2c(S(=O)(=O)[O-])cc(S(=O)(=O)[O-])cc2c1,,Human conjunctiva cells,Herpes simplex virus,inhibition,culture,5 µg/mL,,cytopathic effect,36%
CCCCCN(CCCCC)CC(=O)OCC1(C)CCCC2(C)C3CCC(C(C)C)=CC3=CCC12,,,Mycobacterium tuberculosis,inhibition,culture,12.5 µg/mL,H37Rv,BACTEC,83%
COc1ccc(Cl)cc1-c1cncc(N2CCN(c3ccccc3)CC2)n1,UL97 kinase,,Cytomegalovirus,inhibition,target,10 µM,,,>15%
COC(=O)C1=C(c2cc(OC)c(OC)c(OC)c2)OC(c2cc(OC)c(OC)c(OC)c2)C1COC(C)=O,,,Mycobacterium tuberculosis,inhibition,culture,12.5 µg/mL,H37Rv,BACTEC,0%
CCOC(=O)CONC(=O)c1ccccc1,,,Mycobacterium tuberculosis,MIC,culture,,H37Rv,,6.25 µg/mL

Repeating the first 11 entries:

| structure | target | cell line | agent | endpoint | test | dose | strain | method | value |
|---|---|---|---|---|---|---|---|---|---|
| CC(=O)c1ccc(-c2cncc(N3CCC(c4ccccc4)CC3)n2)cc1 | UL97 kinase |  | Cytomegalovirus | IC50 | target |  |  |  | <10 µM |
| O=C1CCCCCCCCCCCCCCCO1 |  |  | Mycobacterium tuberculosis | MIC | culture |  | PZA-R |  | >12.8 µg/mL |
| CC(=O)N1CCC(C2CCN(C(C)=O)CC2)CC1 |  |  | Mycobacterium tuberculosis | MIC | culture |  | H37Rv |  | >100 µg/mL |
| CCO/N=C/c1ccc(OCCC2CCN(c3ccc(C)nn3)CC2)cc1 |  | KB | Rhinovirus | EC50 | culture |  | 204-CV14 (ICAM-1 receptor group 10) | neutral red | 0.082 µM |
| O=CNc1cccc(Cl)c1 |  |  | Mycobacterium tuberculosis | MIC | culture |  | H37Rv |  | 50 µg/mL |
| C=CCc1ccc(O)c(OC)c1 |  |  | Candida albicans | MIC90 | culture |  | 3048 | turbidity | 500 µg/mL |
| CSc1ccc(-c2cncc(N3CCN(c4ccc(C)cc4)CC3)n2)cc1 | UL97 kinase |  | Cytomegalovirus | inhibition | target | 1 µM |  |  | <50% |
| O=C(Nc1nnc(NCCc2cccs2)s1)c1ccc(I)cc1 | Polymerase |  | Human cytomegalovirus | IC50 | target |  |  |  | >25 µM |
| CC(C)=C(Cl)c1c(C)cc(C)c(CC(N)=O)c1C |  |  | Mycobacterium tuberculosis | MIC | culture |  | H37Rv |  | >100 µg/mL |
| c1coc(CNCCNCc2ccco2)c1 |  |  | Mycobacterium tuberculosis | MIC | culture |  |  |  | 25 µM |
| Cc1ccc(C(=O)Nc2nnc(NCCCN3CCCC3=O)s2)cc1 | Polymerase |  | Human cytomegalovirus | IC50 | target |  |  |  | >25 µM |